## Sequence variants of PSTVd loop 15 after infection

Values reported by Wu et al. 2024 (doi:10.1371/journal.ppat.1012142).

Region: loop 15 of PSTVd (intermediate strain), upper and lower strand joined, each 5' to 3', the first 7 letters being the upper strand, closing pairs included. Wild type: GGAAACCGCUACUAC. Varied positions (N): GGAAACCGNNNNNNC.

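Three N. benthamiana plants were inoculated with the whole mutant pool. Progeny were sequenced from the inoculated region (day 5), the margin of the inoculated leaf (day 10) and systemic leaves (day 12).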

Numbers give reads per thousand; 0 = not seen among the reads, higher = more abundant. Each value is the mean of three plants. "Pool" is the share in the plasmid pool used as inoculum, on the same scale. The inoculated region was read from the minus strand, the other sites from the plus strand. Wild type was 33.9 per thousand in the pool and the most common sequence in every sample (inoculated region 202, 200, 159; leaf margin 724, 746, 710; systemic leaves 856, 883, 880). Samples held 43,870 to 66,106 reads, so the smallest values rest on one or two reads. Sequences that differ at fixed positions probably stem from PCR or sequencing errors, and defective variants can be carried along by functional ones.

- GGAAACCGUGCAACC (pool 0.224) = inoculated region 0.0696; leaf margin 0.0182; systemic leaves 0
- GGAAACCGCAGCUUC (pool 0.176) = inoculated region 0.113; leaf margin 0.00539; systemic leaves 0
- GGAAACCGGGGGCUC (pool 0.208) = inoculated region 0.0850; leaf margin 0.00668; systemic leaves 0
- GGAAACCGACUAGUC (pool 0.304) = inoculated region 0.192; leaf margin 0.0215; systemic leaves 0
- GGAAACCGGACGUAC (pool 0.192) = inoculated region 0.330; leaf margin 0.154; systemic leaves 0.0281
- GGAAACCGCCUUGAC (pool 0.208) = inoculated region 0.115; leaf margin 0.0175; systemic leaves 0
- GGAAACCGGCGCCAC (pool 0.192) = inoculated region 0.122; leaf margin 0.0249; systemic leaves 0.00537
- GGAAACCGUCCUAGC (pool 0.256) = inoculated region 0.215; leaf margin 0.0175; systemic leaves 0
- GGAAACCGAGAUAUC (pool 0.160) = inoculated region 0.355; leaf margin 0.107; systemic leaves 0.0161
- GGAAACCGUUAGAAC (pool 0.176) = inoculated region 0.284; leaf margin 0.0900; systemic leaves 0.0819
- GGAAACCGGAGUUAC (pool 0.192) = inoculated region 0.102; leaf margin 0; systemic leaves 0
- GGAAACCGAUCCGUC (pool 0.272) = inoculated region 0.0569; leaf margin 0.00539; systemic leaves 0
- GGAAACCGUAAGUGC (pool 0.240) = inoculated region 0.331; leaf margin 0.0995; systemic leaves 0.0388
- GGAAACCGUAACACC (pool 0.400) = inoculated region 0.0965; leaf margin 0.00668; systemic leaves 0
- GGAAACCGCCUAUUC (pool 0.272) = inoculated region 0.309; leaf margin 0.0895; systemic leaves 0.0268
- GGAAACCGACGCGAC (pool 0.176) = inoculated region 0.118; leaf margin 0.0134; systemic leaves 0
- GGAAACCGUCUCUGC (pool 0.304) = inoculated region 0.124; leaf margin 0.383; systemic leaves 0
- GGAAACCGCGUGUUC (pool 0.224) = inoculated region 0.323; leaf margin 0.0875; systemic leaves 0.0543
- GGAAACCGUUCCAGC (pool 0.320) = inoculated region 0.0802; leaf margin 0.0187; systemic leaves 0
- GGAAACCGUUUGUGC (pool 0.192) = inoculated region 0.317; leaf margin 0.0846; systemic leaves 0.0259
- GGAAACCGUGCAUUC (pool 0.192) = inoculated region 0.281; leaf margin 0.111; systemic leaves 0.0161
- GGAAACCGCACAUUC (pool 0.272) = inoculated region 0.347; leaf margin 0.0800; systemic leaves 0.0161
- GGAAACCGAGCGUUC (pool 0.176) = inoculated region 0.546; leaf margin 0.155; systemic leaves 0.0435
- GGAAACCGUAGAGGC (pool 0.112) = inoculated region 0.127; leaf margin 0.00668; systemic leaves 0
- GGAAACCGACUGGCC (pool 0.208) = inoculated region 0.0723; leaf margin 0.00539; systemic leaves 0
- GGAAACCGUGAAGAC (pool 0.208) = inoculated region 0.0954; leaf margin 0; systemic leaves 0.00537
- GGAAACCGAGCAAGC (pool 0.208) = inoculated region 0.0805; leaf margin 0.00539; systemic leaves 0
- GGAAACCGUUGAGUC (pool 0.224) = inoculated region 0.0864; leaf margin 0; systemic leaves 0
- GGAAACCGCCCGUGC (pool 0.256) = inoculated region 0.341; leaf margin 0.0624; systemic leaves 0.0439
- GGAAACCGUGAAUGC (pool 0.256) = inoculated region 0.360; leaf margin 0.0570; systemic leaves 0.0762
- GGAAACCGCCUUUCC (pool 0.176) = inoculated region 0.0343; leaf margin 0.0275; systemic leaves 0
- GGAAACCGUUCGUAC (pool 0.304) = inoculated region 0.322; leaf margin 0.121; systemic leaves 0.00537
- GGAAACCGAAUGGAC (pool 0.288) = inoculated region 0.0903; leaf margin 0; systemic leaves 0.00537
- GGAAACCGUGUUAGC (pool 0.256) = inoculated region 0.0786; leaf margin 0.0195; systemic leaves 0
- GGAAACCGGGUUGCC (pool 0.176) = inoculated region 0.0903; leaf margin 0.0128; systemic leaves 0
- GGAAACCGAUGUCCC (pool 0.144) = inoculated region 0.0987; leaf margin 0.0141; systemic leaves 0
- GGAAACCGACGCUGC (pool 0.288) = inoculated region 0.0786; leaf margin 0.00668; systemic leaves 0.00537
- GGAAACCGUCCGUAC (pool 0.224) = inoculated region 0.362; leaf margin 0.144; systemic leaves 0.0565
- GGAAACCGCCCAUGC (pool 0.240) = inoculated region 0.353; leaf margin 0.147; systemic leaves 0.0161

A selection of 5 entries from above:

For GGAAACCGCACAUUC (pool 0.272) the result was inoculated region 0.347; leaf margin 0.0800; systemic leaves 0.0161.
For GGAAACCGAGCGUUC (pool 0.176) the result was inoculated region 0.546; leaf margin 0.155; systemic leaves 0.0435.
For GGAAACCGUAACACC (pool 0.400) the result was inoculated region 0.0965; leaf margin 0.00668; systemic leaves 0.
For GGAAACCGUGAAUGC (pool 0.256) the result was inoculated region 0.360; leaf margin 0.0570; systemic leaves 0.0762.
For GGAAACCGUGCAUUC (pool 0.192) the result was inoculated region 0.281; leaf margin 0.111; systemic leaves 0.0161.